In patent US20040067998A1, “Antifungal and/or antiparasitic pharmaceutical composition and novel indole derivatives as active principle of such a composition” (priority 2003, published 2004):

Key:
Format in all cases: cell-based
[1] = tested on: Candida albicans (strain n° CA980001); test: Antifungal activity on a clinical strain of Candida albicans (MTT colorimetric microplate test); settings: AmB: CMI = CI90
[2] = tested on: Candida krusei (4 strains); test: Antifungal activity in vitro on clinical strains of Candida: krusei (4 strains)
[3] = tested on: promastigote stage of Leishmania mexicana; test: Antiparasitic activity on the promastigote form of Leishmania (MTT)
[4] = tested on: Candida albicans (4 strains); test: Antifungal activity in vitro on clinical strains of Candida: albicans (4 strains)
[5] = tested on: Candida tropicalis (1 strain); test: Antifungal activity in vitro on clinical strains of Candida: tropicalis (1 strain); settings: strain CT980002 (Candida tropicalis)
[6] = tested on: intracellular amastigote form of Leishmania mexicana; test: Anti-leishmanian activity on the amastigote form in peritoneal macrophages of BALB/c mice; settings: infected peritoneal macrophages; 96 hours
[7] = tested on: Aspergillus fumigatus (strain n°AF 980003); test: Antifungal activity on a clinical strain of Aspergillus fumigatus (Alamar Blue microplate test); settings: AmB: CMI = CI90
[8] = tested on: Candida lusitaniae (1 strain); test: Antifungal activity in vitro on clinical strains of Candida: lusitaniae (1 strain); settings: strain CL980001 (Candida lusitaniae)
[9] = tested on: Candida parapsilosis (2 strains); test: Antifungal activity in vitro on clinical strains of Candida: parapsilosis (2 strains)

amphotericin B
CMI = CI90 Candida albicans (CA980001) [1]: 0.12 μM and 0.12 μg/ml
CI80 on clinical strains of Candida ([2]; strain CK980001 (Candida krusei)): 0.07 ± 0.01 µM
CI80 on clinical strains of Candida ([2]; strain CK980002 (Candida krusei)): 0.15 ± 0.08 µM
CI80 on clinical strains of Candida ([2]; strain CK980003 (Candida krusei)): 0.86 ± 0.0 µM
CI80 on clinical strains of Candida ([2]; strain CK980004 (Candida krusei)): 0.84 ± 0.0 µM
CI50 Leishmania mexicana Promastigotes [3]: 0.029 ± 0.03 µg/mL
CI50 Leishmania mexicana Promastigotes ([3]; 36 h at 26° C., MTT): 0.029 ± 0.03 µg/mL
CI50 Leishmania mexicana Promastigotes ([3]; 36 h at 26° C., MTT, listed as amphot ricin B): 0.029 µg/mL
IC50 ([3]; read-out: CI50 Leishmania mexicana Promastigotes): 0.026 µM
IC50 ([3]; read-out: CI50 Leishmania mexicana Promastigotes, 36 h at 26° C., MTT): 0.026 µM
CI80 on clinical strains of Candida ([4]; strain CA980001 (Candida albicans)): 0.08 ± 0.001 µM
CI80 on clinical strains of Candida ([4]; strain CA980002 (Candida albicans)): 0.07 ± 0.001 µM
CI80 on clinical strains of Candida ([4]; strain CA980003 (Candida albicans)): 0.08 ± 0.002 µM
CI80 on clinical strains of Candida ([4]; strain CA980005 (Candida albicans)): 0.08 ± 0.002 µM
CI80 on clinical strains of Candida [5]: 0.08 ± 0.0 µM
IC50 on the amastigote stage of Leishmania mexicana [6]: 0.47 µg/mL
CMI = CI90 Aspergillus fumigatus (AF980003) [7]: 0.15 μM and 0.14 μg/ml
CI80 on clinical strains of Candida [8]: 0.63 ± 0.01 µM
CI80 on clinical strains of Candida ([9]; strain CP980001 (Candida parapsilosis)): >1 µM
CI80 on clinical strains of Candida ([9]; strain CP980002 (Candida parapsilosis)): 0.81 ± 0.01 µM

“And” between values parts separate entries of the source, which are not always exact repeats. Equal values may be shown once. Read-outs that look alike come from different tables or passages of the source.
